The source of these data is publication PMC3131257, “Hypericum lanceolatum (Hypericaceae) as a potential source of new anti-malarial agents: a bioassay-guided fractionation of the stem bark” (Malaria Journal, 2011).

The series has as its system LLC-MK2 monkey kidney epithelial cells. Put plainly: cytotoxicity on LLC-MK2 monkey kidney epithelial cells. The conditions noted are these: SI = CC50/IC50. As to the method: The cytotoxicity profiles of the extracts and pure compounds were estimated against LLC-MK2 monkey kidney epithelial cells according to the procedure previously described with some modifications. Cells were cultured under the same conditions as P. falciparum. Cells were distributed in 96-well plates at 20,000 cells per well in 100 μL culture medium, and allowed to attach and become confluent, for 24h. The medium was then removed completely the next day and 100 μL of fresh medium was added to all the wells, followed by 100 μL of crude extract (1000 μg/mL) or pure compounds (200 μg/mL) added in triplicate in row H. A two folds serial dilution was made upward to obtain concentration range of 250 - 3.90 μg/ml (crude extract) or 50 - 0.78 μg/ml (pure compounds), cells at row A serving as control without drug. The plates were incubated for five days at 37°C in 5% CO2 in air. Cells concentration and viability in the presence of extracts or pure compounds were compared with that of control cultures without extracts.

Turning to `COc1cccc2c(=O)c3ccc(O)cc3oc12` [HLT4, 3-hydroxy-5-methoxyxanthone], the “Mean SI for W2mef” value (first SI column of Table 3) stood at 0.36 ± 0.00 and the “Mean SI for W2mef” value (second SI column of Table 3 (same head printed)) is listed as 0.36.
